A mixed list of measured activities; the numbers were collected in NIAID ChemDB.

All rows: tests on isolated targets

Blank or dashed fields: not listed here.

structure,endpoint,dose,target,agent,value
Oc1cc(O)c2ccccc2c1,IC50,-,Protease,Herpes simplex virus 1,>100 µM
CC(Br)(C(=O)O)P(=O)(O)O,IC50,-,DNA polymerase,Herpes simplex virus 2,>100 µM
O=C(O)C(O)P(=O)(O)O,IC50,-,DNA polymerase,Herpes simplex virus 2,3 µM
[N-]=[N+]=NC[C@H]1O[C@@H](n2cc(I)c(=O)[nH]c2=O)C[C@@H]1O,IC50,-,Thymidine kinase,Herpes simplex virus 1,0.28 µM
O=C(Oc1ccccc1)P(=O)(O)O,IC50,-,DNA polymerase,Herpes simplex virus 1,10 µM
O=C(NC[C@H]1O[C@@H](n2cc(I)c(=O)[nH]c2=O)C[C@@H]1O)c1ccccc1,IC50,-,Thymidine kinase,Herpes simplex virus 1,>0.05 µM
O=P(O)(O)P(=O)(O)O,IC50,-,DNA polymerase,Herpes simplex virus 2,12 µM
O=C(O)C(Cl)(Br)P(=O)(O)O,inhibition,100 µM,DNA polymerase,Herpes simplex virus 2,0%
Cc1cn([C@H]2C[C@H](O)[C@@H](CN=[N+]=[N-])O2)c(=O)[nH]c1=O,IC50,-,Thymidine kinase,Herpes simplex virus 1,0.6 µM
CC(F)(C(=O)O)P(=O)(O)O,inhibition,100 µM,DNA polymerase,Herpes simplex virus 2,0%
O=C1C=CC(=O)c2c(O)ccc(O)c21,IC50,-,Protease,Herpes simplex virus 1,16.9 µM
O=C(O)C(F)P(=O)(O)O,inhibition,100 µM,DNA polymerase,Herpes simplex virus 1,100%
CC(=O)NC[C@H]1O[C@@H](n2ccc(=O)[nH]c2=O)C[C@@H]1O,IC50,-,Thymidine kinase,Herpes simplex virus 1,>5 µM
O=C(O)C(F)(Br)P(=O)(O)O,inhibition,100 µM,DNA polymerase,Herpes simplex virus 2,70%
CC(=O)NC[C@H]1O[C@@H](n2cc(C)c(=O)[nH]c2=O)C[C@@H]1OC(C)=O,IC50,-,Thymidine kinase,Herpes simplex virus 1,13.2 µM
O=C(O)C(F)(F)P(=O)(O)O,IC50,-,DNA polymerase,Herpes simplex virus 2,30 µM
O=C(O)C(=O)O,IC50,-,DNA polymerase,Herpes simplex virus 2,400 µM
Oc1cccc2c(O)cccc12,IC50,-,Protease,Herpes simplex virus 1,>100 µM
O=P(O)(O)CP(=O)(O)O,IC50,-,DNA polymerase,Herpes simplex virus 1,>500 µM
O=P(O)(O)C(F)(F)P(=O)(O)O,IC50,-,DNA polymerase,Herpes simplex virus 2,>100 µM
CC(=O)O[C@H]1C[C@H](n2cc(I)c(=O)[nH]c2=O)O[C@@H]1CN=[N+]=[N-],IC50,-,Thymidine kinase,Herpes simplex virus 1,>0.2 µM
CCCCCCCCCC(C(=O)O)P(=O)(O)O,IC50,-,DNA polymerase,Herpes simplex virus 2,5 µM

The last 3 rows once more:

structure | endpoint | dose | target | agent | value
O=P(O)(O)C(F)(F)P(=O)(O)O | IC50 | - | DNA polymerase | Herpes simplex virus 2 | >100 µM
CC(=O)O[C@H]1C[C@H](n2cc(I)c(=O)[nH]c2=O)O[C@@H]1CN=[N+]=[N-] | IC50 | - | Thymidine kinase | Herpes simplex virus 1 | >0.2 µM
CCCCCCCCCC(C(=O)O)P(=O)(O)O | IC50 | - | DNA polymerase | Herpes simplex virus 2 | 5 µM

Conditions beyond the fields shown may differ between rows. Percent inhibition refers to the dose given; in toxicity tests it is the harm to the cells. ICn: concentration for n% inhibition.